PubChem BioAssay AID1259414, Drosophila RNAi Screening Center – 2018

Assay: 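Genome-wide screen for host control of endosymbiont load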 (primary screen)
System: Drosophila JW18 cells infected with Wolbachia
Reagent: long dsRNA against Drosophila genes, 0.25 µg dsRNA per well of a 384-well plate
Time to read-out: 5 days
Treatment: cells persistently infected with Wolbachia before knock-down; no added drug
Measured: 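Automated imaging of bacterial rRNA staining divided by host cell count, reported as plate-normalised robust z-score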
Reading the numbers: Wolbachia per cell robust z: higher = more Wolbachia per host cell than the plate typical
Active means: 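Active if absolute robust z reaches 1.5 in two or more of three replicates, leaving out multi- or no-target dsRNAs, genes unexpressed in JW18 and A1 wells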
In all, the deposit lists about 24,000 reagents; this is a random part of those that have a named target and a result. In the full data, about 1,210 (5%) were called active. 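Inactive calls also include excluded dsRNAs with several or no targets, genes unexpressed in JW18, and well A1, regardless of score.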 The numbers tell different reagents against one gene apart. Names joined by + are all predicted targets of the reagent.

Target gene	reagent no.	Wolbachia per cell robust z, rep 1	Wolbachia per cell robust z, rep 2	Wolbachia per cell robust z, rep 3	Call
Sec16 (Secretory 16)	1	0.00911	1.07	0.938	inactive
Hmgcl (3-Hydroxymethyl-3-methylglutaryl-CoA lyase)	1	-3.37	-1.55	0.165	active
kst (karst)	1	0.832	0.406	-0.271	inactive
kst (karst)	2	-0.277	0.505	-1.75	inactive
CG42788	1	-0.0262	-1.23	-0.994	inactive
CG42788	2	-0.743	-0.61	-0.711	inactive
CG42788	3	-1.38	-2.94	-1.73	active
CG42788	4	0.43	-1.05	-0.907	inactive
CG45263	1	-0.817	0.891	-0.0571	inactive
CG45263	2	1.21	-0.308	-0.4	inactive
CG45263	3	-0.0575	-1.16	0.26	inactive
CG45263	4	-0.889	1.61	-0.0388	inactive
CG45263	5	-0.93	-0.393	-1.38	inactive
CG45263	6	-2.5	0.431	0.0298	inactive
GstD2 (Glutathione S transferase D2)	1	-4.66	0.91	-1.57	active
GstD2 (Glutathione S transferase D2)	2	-7.37	-0.266	-0.404	inactive
twit (target of wit)	1	-5.81	0.124	1.01	inactive
twit (target of wit)	2	-0.819	-0.338	-3.35	inactive
CG33110	1	-5.82	-1.3	-3.89	inactive
CG33110	2	-0.256	-1.69	-0.525	inactive
Hsp70Bb + Hsp70Ba + Hsp70Bbb	1	0.0361	0.0844	0.21	inactive
CG1835	1	0.793	0.288	0.836	inactive
IscU (Iron-sulfur cluster assembly enzyme)	1	1.21	0.541	-5.36	inactive
armi (armitage)	1	-0.0351	0.156	0.602	inactive
pyr (pyramus)	1	0.105	0.155	-0.3	inactive
CR14798 (pseudo)	1	-4.28	0.0744	-0.297	inactive
Obp57e (Odorant-binding protein 57e)	1	-0.0708	0.721	-0.139	inactive
Obp57e (Odorant-binding protein 57e)	2	0.768	-0.231	0.317	inactive
asRNA:CR42743 + CG34162	1	-9.02	1.11	-0.12	inactive
asRNA:CR42743 + CG34162	2	0.0209	1.32	1.09	inactive
CG42319	1	-1.04	-2.77	-3.68	inactive
CG42319	2	-1.8	-1.47	-0.883	inactive
CG42319	3	0.0057	-0.627	-1.69	inactive
CG42319	4	2.6	-0.724	-4.19	inactive
CG30046	1	-3.41	1.22	-0.736	inactive
CG7810	1	0.518	0.69	0.608	inactive
CG7810	2	0.772	0.129	0.583	inactive
CR40639 (retired record)	1	0.552	0.698	-1.44	inactive
Epp (Ecdysteroid phosphate phosphatase)	1	-0.735	-1.54	0.0303	inactive
Epp (Ecdysteroid phosphate phosphatase)	2	-0.0679	-0.943	-0.434	inactive
Epp (Ecdysteroid phosphate phosphatase)	3	-2.23	-2.59	-0.261	active
CG13895	1	0.401	1.34	0.891	inactive
cyc (cycle)	1	-2.76	-1.74	0.414	active
CG5597	1	-0.521	-9.4	-1.84	inactive

Next part, starting with the last 8 of the part before.
Target gene	reagent no.	Wolbachia per cell robust z, rep 1	Wolbachia per cell robust z, rep 2	Wolbachia per cell robust z, rep 3	Call
CG7810	2	0.772	0.129	0.583	inactive
CR40639 (retired record)	1	0.552	0.698	-1.44	inactive
Epp (Ecdysteroid phosphate phosphatase)	1	-0.735	-1.54	0.0303	inactive
Epp (Ecdysteroid phosphate phosphatase)	2	-0.0679	-0.943	-0.434	inactive
Epp (Ecdysteroid phosphate phosphatase)	3	-2.23	-2.59	-0.261	active
CG13895	1	0.401	1.34	0.891	inactive
cyc (cycle)	1	-2.76	-1.74	0.414	active
CG5597	1	-0.521	-9.4	-1.84	inactive
Argp (Arginine phosphatase)	1	1.03	-0.241	-0.0752	inactive
CG9631	1	1.95	-1.1	-1.1	inactive
CG14260	1	-0.265	0.032	-1.52	inactive
CG6685	1	0.624	-0.376	-0.0136	inactive
wde (windei)	1	0.888	0.172	1.04	inactive
eIF4E3 (eukaryotic translation initiation factor 4E3)	1	-0.367	-0.00167	-0.996	inactive
Taz (Tafazzin)	1	-3.29	-6.21	-3.78	active
Taz (Tafazzin)	2	0.102	-0.658	0.396	inactive
Taz (Tafazzin)	3	-0.987	-0.145	-2.74	inactive
CG5823	1	1.02	-4.9	-0.76	inactive
CG8675	1	-0.0775	1.12	0.0493	inactive
CG8675	2	-1.43	-3.52	-2.64	active
timeout	1	-1.58	0.0264	0.335	inactive
timeout	2	1.03	0.841	-2.45	inactive
timeout	3	-0.46	0.305	0.157	inactive
timeout	4	0.626	-0.383	1.2	inactive
timeout	5	-0.671	0.327	-0.55	inactive
timeout	6	0.747	0.444	-0.896	inactive
CR32745 (pseudo)	1	0.987	0.907	0.578	inactive
CR32745 (pseudo)	2	0.396	0.761	0.663	inactive
elg1 (enhanced level of genomic instability 1)	1	0.286	-0.226	-0.713	inactive
elg1 (enhanced level of genomic instability 1)	2	0.812	0.646	0.725	inactive
elg1 (enhanced level of genomic instability 1)	3	0.248	1.31	1.2	inactive
CG43192	1	-0.174	0.5	-0.421	inactive
CG31810	1	-2.18	-0.387	-1.05	inactive
Vajk2	1	-1.06	-0.88	-1.35	inactive
Vajk2	2	-0.851	-0.867	-0.083	inactive
Sk2 (Sphingosine kinase 2)	1	0.342	-0.0404	1.16	inactive
SMC2 (Structural maintenance of chromosomes 2)	1	0.961	-2.34	0.781	inactive
SMC2 (Structural maintenance of chromosomes 2)	2	-1.48	0.014	-0.549	inactive
CG33766	1	0.567	-1.77	-2.16	inactive
CG10680	1	-3.69	-0.69	-0.796	inactive
Neurl4 (Neuralized E3 ubiquitin protein ligase 4)	1	0.0967	0.275	0.685	inactive
CG7102	1	-0.126	-0.835	0.111	inactive
CG7102	2	-1.15	0.557	0.285	inactive
CG15343	1	-4.75	-3.92	0.192	active
TyrRII (Tyramine receptor II)	1	0.786	1.36	-0.218	inactive
TyrRII (Tyramine receptor II)	2	0.288	0.23	1.02	inactive
CG10417	1	-2.11	0.121	0.387	inactive
CG10417	2	-1.34	-1.65	-5.81	active
CG44836	1	0.861	-0.809	-0.791	inactive
CG44836	2	0.68	-0.0773	-0.386	inactive
CG44836	3	-0.154	-0.288	0.736	inactive
